Measurements published in US7999099B2, “Modified 5′-phosphonate azidothymidine—potential anti-viral preparations” (priority 2004, dated 2011).

Key:
[1] = Pharmacokinetics of generated AZT in dog blood after oral administration; type: in vivo; conditions: of azidothymidine, amount equivalent to 250 mg of AZT
Protocol: A dog weighing 12 kg was orally given 250 mg of the investigational compound (mixed with curd). Blood samples (1 ml) were taken at defined intervals from the femoral vein. The samples were centrifuged (10 minutes at 2000 rpm) and the supernatant was separated. Oxetan (internal standard, 0.25 […]g) and methanol (0.75 ml) were added to aliquots of the supernatant (0.25 ml). The resulting mixture was centrifuged for 3 minutes at 5000 rpm. The supernatant was separated and evaporated in air flow at 40° C., water (1 ml) was added to the residue. Aliqutes (20[…]1) were analyzed by HPLC in Gynkotec chromatograph (Germany) using Ultrasphere ODC Beckman analytical column (USA). Eluent: 6% acetonitrile in 0.1% H3PO4 (pH 2.1) in the presence of 0.15% triethylamine; detection at […]max 265 nm at 30° C.

MT-4 cells = assay: Assessment of cytotoxicity in MT-4 cells (MTT); type: cell-based; conditions: 4 days
Protocol: Drug cytotoxicity is assessed by adding its dilutions in serum-free RPMI-1640 medium to MT-4 cell suspension (initial concentration in the wells of a 96-well plate (Cel-Cult, UK) to final concentrations of 0.001-100 µg/ml (3 wells per dose) and cultivating at 37° C. for 4 days. Inoculation concentration is 0.5 ? 10^6 cells/ml is used. Cells in the same volume serum-free medium containing no drug are used as control. Viable cells are counted on the 4th day of cultivation using the formasan method (MTT staining of live cells). Toxicity of various doses of the drug is assessed by comparing cell viability with the control, the results are used to plot the dose-dependent curve and determine the concentration reducing cell viability by 50% (CD50). Effective concentrations of the investigational compounds produce on toxic effect on MT-4 cells. It should be noted that 50% toxic doses are 5-6 orders higher than does effective against HIV-1 (table 1).

With “5′-Aminocarbonylphosphonyl-3′-azido-3′-deoxythymidine [Ie]” the AUC [1] was 9240 ng·h/mL, the CL [1] was 27.0 L/h and the Cmax [1] was 740 ng/mL. The MRT [1] was 13.9 h, the T1/2 [1] was 9.6 h and the Tmax [1] was 5.0 h. For the same substance, the “CD50 (concentration reducing cell viability by 50%)” value (MT-4 cells) was greater than 300 µM.
With “5′-Hydroxymethylphosphonyl-3′-azido-3′-deoxythymidine [Ic]” the “CD50 (concentration reducing cell viability by 50%)” value (MT-4 cells) was greater than 500 µM.
For “5′-Iodomethylphosphonyl-3′-azido-3′-deoxythymidine [Ib]”, the “CD50 (concentration reducing cell viability by 50%)” value (MT-4 cells) was greater than 500 µM.
In the case of “5′-Chloromethylphosphonyl-3′-azido-3′-deoxythymidine [Ia]”, the “CD50 (concentration reducing cell viability by 50%)” value (MT-4 cells) is reported as 300 µM.
For “5′-Methoxymethylphosphonyl-3′-azido-3′-deoxythymidine”, the “CD50 (concentration reducing cell viability by 50%)” value (MT-4 cells) was greater than 500 µM.
